Results on one substance are retold here after PMC8635433, “ChAdOx1 interacts with CAR and PF4 with implications for thrombosis with thrombocytopenia syndrome” (2021).

By Kd is commonly meant the free concentration of one partner at which half of the binding sites on the other are occupied at equilibrium, for simple one-to-one binding.

For this assay, the target named is ChAdOx1 viral vector (virus particle, capsid) (chimpanzee adenovirus Y25). The assay is described as follows: SPR.

In turn, “platelet factor 4 (PF4) (natural protein)” gave a Kd of 0.661 µM.
